Compound potency records, mixed from different reports. Data source: NIAID ChemDB in PubChem.

All rows: target-level tests; agent: HIV-1; target: Integrase; read by: 3′ processing; measure: IC50

ICn is the concentration giving n% inhibition. Lines come from different laboratories, so protocols vary. Blank or dashed fields: not listed here.

| compound | strain | setting | value |
|---|---|---|---|
| Nc1ccn([C@@H]2CO[C@H](COP(=O)(O)O[C@H]3C[C@H](n4cnc5c(N)ncnc54)O[C@@H]3COP(=O)(O)O)[C@H]2O)c(=O)n1 | - | - | >1000 µM |
| O=C1c2ccccc2SCC2CSC(c3ccccc3)N12 | RF | - | 241.5 µM |
| O=C(/C=C/c1ccc(O)c(O)c1)OCCc1ccccc1 | - | - | 220 µM |
| Nc1ccc(S(=O)(=O)c2ccc(N)c([N+](=O)[O-])c2)cc1[N+](=O)[O-] | - | - | >100 µM |
| CC(=O)Oc1cc(OC(C)=O)c2c(c1)C(=O)c1cc(C)cc(OC(C)=O)c1C2=O | - | Mg2+ | >200 µM |
| O=[N+]([O-])c1cc(S(=O)(=O)c2ccc(N(CCO)CCO)c([N+](=O)[O-])c2)ccc1N(CCO)CCO | - | - | >100 µM |
| Nc1ccn(C2C[C@H](O)[C@@H](COP(=O)(O)O[C@H]3[C@H](n4cnc5c(N)ncnc54)CO[C@@H]3COP(=O)(O)O)O2)c(=O)n1 | - | - | 19 µM |
| O=C(/C=C/c1ccc(O)c(O)c1)O[C@@H]1CC(O)(C(=O)O)C[C@@H](OC(=O)/C=C/c2ccc(O)c(O)c2)C1O | - | - | 0.33 µg/mL |
| O=C=Nc1cc(S(=O)(=O)c2ccc(Cl)c(N=C=O)c2)ccc1Cl | - | - | 100 µM |
| C[C@H]1CC[C@@H]2N(C1)C[C@@H]1[C@](O)([C@@H](O)C[C@@]3(O)[C@@H]4CC[C@@H]5[C@]6(O)O[C@@]4(C[C@@]13O)[C@@]5(C)CC[C@H]6O)[C@]2(C)O | - | - | >250 µM |
| C[C@@H]1O[C@@H](O[C@@H]2[C@@H](O)[C@H](OCCc3ccc(O)c(O)c3)O[C@H](CO)[C@H]2OC(=O)/C=C/c2ccc(O)c(O)c2)[C@H](O)[C@H](O)[C@H]1O | - | - | 7.8 µM |
| Oc1cc(O)c2c(c1)O[C@@H](c1ccc(O)c(O)c1)[C@H](O)C2 | - | - | 432 µM |
| COc1ccc(Cn2nnnc2C(=O)CC(=O)c2cc(OCc3ccccc3)cc(OCc3ccccc3)c2)cc1 | - | - | 21.7 µM |
| CN(C)Cc1ccc2n1C(=O)c1ccccc1SC2c1ccc(F)cc1 | - | - | >1000 µM |
| COc1ccc2c(c1)C(=O)N1CSCC1C(=O)S2 | RF | - | 215 µM |
| O=C1Sc2ccc(Cl)cc2C(=O)N2CCSC12 | - | - | 125 µM |
| COc1cc(C(=O)Oc2c(-c3ccc(Cl)c(Cl)c3)oc3ccccc3c2=O)cc(OC)c1O | - | - | >100 µM |
| CC(C)(C)c1cc(/C=C2/SC(=S)N(NC(=S)C(=O)Nc3ccc(O)cc3)C2=O)c(O)c(C(C)(C)C)c1 | - | - | >100 µM |
| O=C(O)c1ccc2ccc(/C=C/c3ccc(O)c(O)c3)nc2c1O | - | - | 18.9 µM |
| O=[N+]([O-])c1cccc(S(=O)(=O)c2ccc(F)c([N+](=O)[O-])c2)c1 | - | - | >100 µM |
| CCCCS(=O)(=O)c1ccc(Oc2cc(O)c3c(c2N)C(=O)c2ccccc2C3=O)cc1 | - | Mn2+ | >200 µM |
| O=C(Oc1c(-c2ccc(Cl)cc2)oc2ccccc2c1=O)c1cc(O)c(O)c(O)c1 | - | - | 8.3 µM |
| O=c1c(O)c(-c2ccc(O)c(O)c2)oc2cc(O)ccc12 | - | - | 28.18 µM |
| CC(C)[C@H]1OC(=O)[C@H](Cc2ccccc2)N(C)C(=O)[C@@H](C(C)C)OC(=O)[C@H](Cc2ccccc2)N(C)C(=O)[C@@H](C(C)C)OC(=O)[C@H](Cc2ccccc2)N(C)C1=O | - | - | 1.9 µM |
| COc1cc(C(=O)Oc2c(-c3ccc(Cl)cc3)oc3ccccc3c2=O)ccc1O | - | - | >100 µM |
| O=C1c2c(ccc(O)c2O)CN1Cc1ccc2[nH]ccc2c1 | - | - | >333 µM |
| COc1c(C(=O)O)ccc2cc(/C=C/c3ccc(O)cc3)oc12 | - | - | >>100 µM |
| O=C(NCc1ccc(F)cc1)c1nc(N2CCCCS2(=O)=O)c2cccnc2c1O | - | - | 4 µM |
| COC(=O)c1ccc2cc(/C=C/c3ccc(OC)c(OC)c3)oc2c1OC | - | - | >>100 µM |
| O=c1c(O)c(-c2ccc(O)cc2)oc2cc(O)cc(O)c12 | - | - | 97.72 µM |
| CN1C(=O)C(=O)/C(=C(\O)c2ccccn2)C1c1cccc(Cl)c1 | - | - | >100 µM |
| Cc1cn([C@@H]2CO[C@H](COP(=O)(O)O[C@H]3C[C@H](n4ccc(N)nc4=O)O[C@@H]3COP(=O)(O)O)[C@H]2O)c(=O)[nH]c1=O | - | - | 405 µM |
| O=C(CC(=O)c1c[nH]c2ccccc12)c1nn[nH]n1 | - | - | >392 µM |
| O=C1Sc2ccc(Cl)cc2C(=O)N2CCSC12 | RF | - | 128 µM |
| C[C@H](CCC(=O)Nc1ccc(S(=O)(=O)c2ccc(NC(=O)CC[C@@H](C)[C@H]3CC[C@H]4[C@@H]5CC[C@H]6C[C@@H](O)CC[C@]6(C)[C@H]5CC(O)[C@]34C)cc2)cc1)[C@H]1CC[C@H]2[C@@H]3CC[C@H]4C[C@@H](O)CC[C@]4(C)[C@H]3CC(O)[C@]12C | - | - | >100 µM |
| CSc1nc(Cl)c(Br)c(Sc2nc(N)nc3nc[nH]c23)n1 | - | - | >250 µM |
| CN1CCN(Cc2ccc3n2C(=O)c2ccccc2SC3c2ccccc2)CC1 | - | - | >1000 µM |
| N#Cc1ccc(S(=O)(=O)c2ccc(C#N)cc2)cc1 | - | - | >100 µM |
| O=c1c(O)c(-c2cc(O)c(O)c(O)c2)oc2cc(O)ccc12 | - | - | 5.89 µM |
| Nc1nc2c(ncn2C2CC(O)C(COP(=O)(O)OC3CC(n4cnc5c(=O)[nH]c(N)nc54)OC3COP(=O)(O)O)O2)c(=O)[nH]1 | - | - | 54 µM |
| O=c1cc(-c2ccc(O)c(O)c2)oc2c(O)c(O)c(O)c(O)c12 | - | - | 0.79 µM |
| Cn1c(=O)c2c(nc3sc4c(n32)C(=O)c2c(O)ccc(O)c2C4=O)n(C)c1=O | - | - | 18 µM |
| CC(=O)Oc1ccc(S(=O)(=O)c2ccc(OC(C)=O)cc2)cc1 | - | - | >100 µM |
| O=c1oc2ccccc2c(O)c1C(c1ccc(N(CCCl)CCCl)c([N+](=O)[O-])c1)c1c(O)c2ccccc2oc1=O | - | - | 8.5 µM |
| O=C1N[C@@H]2C(=C[C@H](O)[C@@H](O)[C@H]2O)c2cc3c(c(O)c21)OCO3 | - | - | >250 µM |
| Nc1c(Br)cc2c([nH]c(=O)c3cc(Br)ccc32)c1Br | - | Mg2+ | 220 µM |
| Oc1cc(O)c2c(c1)O[C@H](c1ccc(O)c(O)c1)[C@@H](O)C2 | - | - | <100 µM |
| CC(C)(C)C(=O)c1sc(C(=O)NCc2ccccc2)c(O)c1O | - | - | 12.5 µM |
| COC(=O)c1ccc2cc(/C=C/c3ccc(O)cc3)oc2c1OC | - | - | >>100 µM |
| Cc1cn(C2CC(OP(=O)(O)OCC3OC(n4cnc5c(N)ncnc54)CC3O)C(COP(=O)(O)OC3CC(n4ccc(N)nc4=O)OC3COP(=O)(O)O)O2)c(=O)[nH]c1=O | - | - | 27 µM |
| O=C(c1ccccc1)c1cccc(CN2C(=O)c3ccc(O)c(O)c3C2=O)c1 | - | - | 300 µM |
| COc1cc(C(=O)Oc2c(-c3ccc(Cl)c(Cl)c3)oc3ccccc3c2=O)ccc1OC(C)=O | - | - | >100 µM |
| Nc1ccn(C2CC(O)C(COP(=O)(O)OC3CC(n4cnc5c(N)ncnc54)OC3COP(=O)(O)OC3CC(n4ccc(N)nc4=O)OC3COP(=O)(O)O)O2)c(=O)n1 | - | - | 93 µM |
| CNc1c(C#N)c(N)nc2c(N=Nc3ccc(Br)cc3)c(N)nn12 | - | - | >250 µM |
| CC(=O)C(N=Nc1ccc(S(=O)(=O)Nc2ccccn2)cc1)C(=O)Nc1ccccc1C | - | Mg2+ | >200 µM |
| O=C(/C=C(\O)c1ccccc1)c1ncn[nH]1 | - | - | >100 µM |
| COc1cc(C(=O)Oc2c(-c3ccc(Cl)cc3)oc3ccccc3c2=O)ccc1OC(C)=O | - | - | >100 µM |
| CS(=O)(=O)CS(=O)(=O)Nc1cc(O)c(O)c2c1C(=O)N(Cc1ccccc1)C2=O | - | - | 8.3 µM |
| COc1ccc(/C=C/C(=O)OC[C@H]2O[C@@H](OCCc3ccc(O)c(OC)c3)[C@H](O)[C@@H](O[C@@H]3O[C@@H](C)[C@H](O)[C@@H](O)[C@H]3O)[C@@H]2O)cc1O | - | - | >100 µM |
| COC(=O)c1ccc2cc(/C=C/c3ccc(O)c(O)c3)oc2c1OC | - | - | 43.8 µM |
| COC(=O)c1nc(=S)[nH]c(C(=O)OC)c1C(=O)c1ccc(O)c(OC)c1 | - | - | 238 µM |
| C[C@@H]1O[C@@H](Oc2c(-c3ccc(O)c(O)c3)oc3cc(O)cc(O)c3c2=O)[C@H](O)[C@H](O)[C@H]1O | - | - | 60.26 µM |
| COc1cc(CCO[C@@H]2O[C@H](CO)[C@@H](OC(=O)/C=C/c3ccc(O)c(O)c3)[C@H](O[C@@H]3O[C@@H](C)[C@H](O)[C@@H](O)[C@H]3O)[C@H]2O)ccc1O | - | - | 60.9 µM |
| Cc1cn(C2CC(O)C(COP(=O)(O)OC3CC(n4cc(C)c(=O)[nH]c4=O)OC3COP(=O)(O)O)O2)c(=O)[nH]c1=O | - | - | 73 µM |
| CCOC(=O)C1Sc2ccccc2C(=O)n2cccc21 | - | - | >1000 µM |
| O=C(O)c1cc2ccccc2c(N=Nc2ccc(S(=O)(=O)Nc3nccs3)cc2)c1O | - | Mn2+ | 24 µM |
| Cc1cn([C@H]2C[C@H](O)[C@@H](COP(=O)(O)O[C@H]3[C@H](n4cnc5c(N)ncnc54)CO[C@@H]3COP(=O)(O)O)O2)c(=O)nc1N | - | - | 60 µM |
| O=C1Sc2ccccc2C(=O)N2CS(=O)CC12 | RF | - | 192.5 µM |
| O=c1oc2ccccc2c(O)c1C(c1ccc(N(CCCl)CCCl)cc1)c1c(O)c2ccccc2oc1=O | - | - | 6.6 µM |
| O=CNc1ccc(S(=O)(=O)c2ccc(NC=O)cc2)cc1 | - | - | >100 µM |
| O=S(=O)(O)c1cc(O)c(N=NC2S(=O)(=O)OCCOS2(=O)=O)c2ccccc12 | - | Mn2+ | >200 µM |
| O=C(/C=C/c1ccc(O)c2c1[C@H](C(=O)O[C@H](Cc1ccc(O)c(O)c1)C(=O)O)[C@@H](c1ccc(O)c(O)c1)O2)O[C@H](Cc1ccc(O)c(O)c1)C(=O)O | - | - | 0.48 µM |
| CC(C)C[C@H]1OC(=O)[C@H](C(C)C)N(C)C(=O)[C@@H](CC(C)C)OC(=O)[C@H](C(C)C)N(C)C(=O)[C@@H](C(C)C)OC(=O)[C@H](C(C)C)N(C)C1=O | - | - | 10.6 µM |
| Cc1cn(C2CC(OP(=O)(O)OCC3OC(n4cnc5c(N)ncnc54)CC3O)C(COP(=O)(O)O)O2)c(=O)[nH]c1=O | - | - | 85 µM |
| Cc1ccc(C(=O)Oc2ccc(C(c3c(O)c4ccccc4oc3=O)c3c(O)c4ccccc4oc3=O)cc2)cc1 | - | - | 0.5 µM |
| O=c1[nH]cc(N=Nc2ccc(S(=O)(=O)Nc3ccccn3)cc2)cc1O | - | Mg2+ | 269 µM |

10 of the rows above, restated:

compound	strain	setting	value
COc1ccc2c(c1)C(=O)N1CSCC1C(=O)S2	RF	-	215 µM
O=c1c(O)c(-c2cc(O)c(O)c(O)c2)oc2cc(O)ccc12	-	-	5.89 µM
C[C@@H]1O[C@@H](O[C@@H]2[C@@H](O)[C@H](OCCc3ccc(O)c(O)c3)O[C@H](CO)[C@H]2OC(=O)/C=C/c2ccc(O)c(O)c2)[C@H](O)[C@H](O)[C@H]1O	-	-	7.8 µM
Oc1cc(O)c2c(c1)O[C@@H](c1ccc(O)c(O)c1)[C@H](O)C2	-	-	432 µM
Cc1cn([C@@H]2CO[C@H](COP(=O)(O)O[C@H]3C[C@H](n4ccc(N)nc4=O)O[C@@H]3COP(=O)(O)O)[C@H]2O)c(=O)[nH]c1=O	-	-	405 µM
O=c1[nH]cc(N=Nc2ccc(S(=O)(=O)Nc3ccccn3)cc2)cc1O	-	Mg2+	269 µM
C[C@H](CCC(=O)Nc1ccc(S(=O)(=O)c2ccc(NC(=O)CC[C@@H](C)[C@H]3CC[C@H]4[C@@H]5CC[C@H]6C[C@@H](O)CC[C@]6(C)[C@H]5CC(O)[C@]34C)cc2)cc1)[C@H]1CC[C@H]2[C@@H]3CC[C@H]4C[C@@H](O)CC[C@]4(C)[C@H]3CC(O)[C@]12C	-	-	>100 µM
CN1C(=O)C(=O)/C(=C(\O)c2ccccn2)C1c1cccc(Cl)c1	-	-	>100 µM
COc1cc(CCO[C@@H]2O[C@H](CO)[C@@H](OC(=O)/C=C/c3ccc(O)c(O)c3)[C@H](O[C@@H]3O[C@@H](C)[C@H](O)[C@@H](O)[C@H]3O)[C@H]2O)ccc1O	-	-	60.9 µM
Cc1cn([C@H]2C[C@H](O)[C@@H](COP(=O)(O)O[C@H]3[C@H](n4cnc5c(N)ncnc54)CO[C@@H]3COP(=O)(O)O)O2)c(=O)nc1N	-	-	60 µM